Compound potency records, mixed from different reports. Data source: NIAID ChemDB in PubChem.

Shared fields: tests in culture; species: Aspergillus fumigatus

An empty or dashed field is not shown. Neighbouring rows are from separate reports. MIC50, MIC90 and the like: level of inhibition, or share of isolates inhibited.

COc1cc(O)c2c(c1)C(=O)c1c(cc3c(c1O)-c1c(cc(C)c(C(=O)NC(C)C(=O)O)c1O)[C@H](OC1OC(C)C(N(C)C(=O)C(CO)(CO)CO)C(OC4OCC(O)C(O)C4O)C1O)[C@H]3O)C2=O ; measure: MIC ; strain: IAM2034 ; value: >100 µg/mL
CCCC(CC(=O)O)c1c(O)c2c(c3c1OC(C)(C)C=C3)O[C@@H](C)[C@H](C)C2=O ; measure: MIC80 ; strain: CBS 113.26 ; value: 4 µg/mL
COc1ccc2nc(NC(=O)CSc3nnc(-c4ccc5ncccc5c4)o3)sc2c1 ; measure: MIC ; read by: agar ; value: 100 µg/mL
CCC(C)CC(C)CCCCCCCCC(=O)N[C@H]1C[C@@H](O)[C@H](NCCN)NC(=O)[C@@H]2[C@@H](O)CCN2C(=O)[C@H]([C@H](O)CCN)NC(=O)[C@H]([C@H](O)[C@@H](O)c2ccc(O)cc2)NC(=O)[C@@H]2C[C@@H](O)CN2C(=O)[C@H]([C@@H](C)O)NC1=O ; measure: MIC50 ; strain: 28 isolates ; value: 0.06 µg/mL
CCCCCOc1ccc(-c2cc(-c3ccc(C(=O)N[C@H]4C[C@@H](O)[C@@H](O)NC(=O)[C@@H]5[C@@H](O)[C@@H](C)CN5C(=O)[C@H]([C@H](O)CC(N)=O)NC(=O)[C@H]([C@H](O)[C@@H](O)c5ccc(O)c(OS(=O)(=O)O)c5)NC(=O)[C@@H]5C[C@@H](O)CN5C(=O)[C@H]([C@@H](C)O)NC4=O)cc3)no2)cc1 ; measure: MIC ; strain: 4 strains ; value: ≤0.0078 µg/mL
COc1cc(O)c2c(c1)C(=O)c1c(cc3c(c1O)-c1c(cc(C)c(C(=O)NC(C)C(=O)O)c1O)[C@H](OC1OC(C)C(N(C)C(=O)c4ccccc4)C(OC4OCC(O)C(O)C4O)C1O)[C@H]3O)C2=O ; measure: MIC ; strain: IAM2034 ; value: >100 µg/mL
Clc1ccc(C(Cn2ccnc2)OCc2csc3c(Cl)cccc23)c(Cl)c1 ; measure: Mean MIC ; strain: 2 strains ; value: 1.41 µg/mL
CCOC(=O)c1sc(SC)c(C#N)c1N ; measure: MIC ; strain: AF-27 ; value: >100 µg/mL
N#Cc1ccc(NC(=O)CSc2nnc(-c3ccc4ncccc4c3)o2)cc1 ; measure: MIC ; read by: agar ; value: 100 µg/mL
CCOC(=O)c1sc(SC)cc1-c1ccc(Br)cc1 ; measure: MIC ; strain: AF-27 ; value: >100 µg/mL
COC12OC1(C13OC1(OC)C(=O)c1cc4cc(C)oc(=O)c4c(O)c1C3O)C(O)c1c(cc3cc(C)oc(=O)c3c1O)C2=O ; measure: MIC ; strain: IFO8866 ; value: >100 µg/mL
COc1cc(O)c2c(c1)C(=O)c1c(cc3c(c1O)-c1c(cc(C)c(C(=O)NC(C)C(=O)O)c1O)[C@H](OC1OC(C)C(N(C)C=O)C(OC4OCC(O)C(O)C4O)C1O)[C@H]3O)C2=O ; measure: MIC ; strain: IAM2034 ; value: 6.3 µg/mL
C[C@H]1[C@H](O)[C@@H](C)/C=C/C=C/C=C/C=C/C=C/C=C/C=C/[C@H](O[C@@H]2O[C@H](C)[C@@H](O)[C@H](N)[C@@H]2O)C[C@@H]2O[C@](O)(C[C@@H](O)C[C@@H](O)CC[C@H](O)[C@@H](O)C[C@@H](O)CC(=O)O[C@H]1C)C[C@H](O)[C@H]2C(=O)O ; measure: Geometric mean MIC ; strain: 17 strains ; value: 1.7 µg/mL
CCOC(=O)c1sc2cc(-c3ccc(Br)cc3)oc(=O)c2c1N ; measure: MIC ; strain: AF-27 ; value: >100 µg/mL
C[C@@H](N1CCN(c2ccc(F)cc2)C1=O)C(O)(Cn1cncn1)c1ccc(F)cc1F ; measure: MIC ; strain: 437 ; value: 8 µg/mL
CSc1cc(-c2ccc(F)cc2)c(C(=O)O)s1 ; measure: MIC ; strain: AF-27 ; value: >100 µg/mL
C[C@@H](n1ncn(-c2ccc(OCC(F)(F)C(F)F)cc2)c1=O)[C@](O)(Cn1cncn1)c1ccc(F)cc1F ; measure: MIC ; strain: TIMM1728 ; value: 2 µg/mL
Cc1ccc(NC(=O)CSc2nnc(-c3ccc4ncccc4c3)o2)cc1 ; measure: MIC ; read by: agar ; value: 100 µg/mL
CCCC[C@@H](C)/C=C(C)/C=C(\C)C(=O)N/C(=C/[C@@](C)(O)/C=C/C=C/C=C/C(=O)NC1=C(O)CCC1=O)C(=O)[C@@H]1CO1 ; measure: MIC ; strain: 3 ; read by: broth dilution ; value: 200 µM
O=C(CSc1nnc(-c2ccc3ncccc3c2)o1)Nc1nc2ccccc2s1 ; measure: MIC ; read by: agar ; value: 100 µg/mL
C[C@@H](N1CCN(c2ccc(OC(F)(F)F)cc2)C1=O)C(O)(Cn1cncn1)c1ccc(F)cc1F ; measure: MIC ; strain: IFO6344 ; value: 0.5 µg/mL
CCCC(CC(=O)O)c1cc2c(c3c1OC(C)(C)C=C3)O[C@H](C)[C@H](C)C2=O ; measure: MIC80 ; strain: CBS 113.26 ; value: 2 µg/mL
Cc1ccc(C(C)C)cc1O ; measure: MIC ; strain: F07 ; value: 0.16 µg/mL
COc1cc(O)c2c(c1)C(=O)c1c(cc3c(c1O)-c1c(cc(C)c(C(=O)NC(C)C(=O)O)c1O)[C@H](OC1OC(C)C(N(C)CC(N)=O)C(OC4OCC(O)C(O)C4O)C1O)[C@H]3O)C2=O ; measure: MIC ; strain: IAM2034 ; value: 6.3 µg/mL
C[C@@H](N1CCN(c2ccc(C(F)(F)F)cc2)C1=O)C(O)(Cn1cncn1)c1ccc(F)cc1F ; measure: MIC ; strain: TIMM1728 ; value: 1 µg/mL
CC(C)=CCc1c(O)cc2oc3ccc4c(c3c(=O)c2c1O)C=CC(C)(C)O4 ; measure: MIC80 ; strain: CBS 113.26 ; value: >250 µg/mL
CCC(C)n1ncn(-c2ccc(N3CCN(c4ccc(OC[C@H]5CO[C@](Cn6cncn6)(c6ccc(Cl)cc6Cl)O5)cc4)CC3)cc2)c1=O ; measure: Geometric mean MIC ; strain: 6 strains ; value: 0.0312 µg/mL
C[C@@H](N1CCN(c2ccc(OCC(F)(F)C(F)F)cc2)C1=O)C(O)(Cn1cncn1)c1ccc(F)cc1F ; measure: MIC ; strain: IFO6344 ; value: 0.5 µg/mL

For reference, 3 entries again:

structure | measure | strain | read by | value
CCCCCOc1ccc(-c2cc(-c3ccc(C(=O)N[C@H]4C[C@@H](O)[C@@H](O)NC(=O)[C@@H]5[C@@H](O)[C@@H](C)CN5C(=O)[C@H]([C@H](O)CC(N)=O)NC(=O)[C@H]([C@H](O)[C@@H](O)c5ccc(O)c(OS(=O)(=O)O)c5)NC(=O)[C@@H]5C[C@@H](O)CN5C(=O)[C@H]([C@@H](C)O)NC4=O)cc3)no2)cc1 | MIC | 4 strains |  | ≤0.0078 µg/mL
CCCC(CC(=O)O)c1cc2c(c3c1OC(C)(C)C=C3)O[C@H](C)[C@H](C)C2=O | MIC80 | CBS 113.26 |  | 2 µg/mL
CCC(C)n1ncn(-c2ccc(N3CCN(c4ccc(OC[C@H]5CO[C@](Cn6cncn6)(c6ccc(Cl)cc6Cl)O5)cc4)CC3)cc2)c1=O | Geometric mean MIC | 6 strains |  | 0.0312 µg/mL